Source: PubChem BioAssay AID1224833 (University of Georgia, 2016)

Test: 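Host factors restraining rotavirus as candidate antiviral genes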 (primary screen)
Cells: monkey MA104 kidney cells
Knock-down reagent: siRNA pool against human genes, 50 nM
Duration: 48 h knock-down before infection; read 24 h after infection
Conditions: infection with rotavirus strain RV3 two days after transfection; infectious dose for this stage not given
Measured: 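z-score of rotavirus antigen signal per well, from a fluorescent immunoassay, relative to non-targeting control wells on the same plate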
Reading the numbers: z-score vs non-targeting control: higher = more rotavirus replication than with non-targeting control
Rule for the call: In these data the active calls have z-score vs non-targeting control at about -1 or lower, or at about 1 or higher
Calls: active = z-score beyond 1 either way; inactive = z-score within 1 of zero
Here is one part, drawn at random, of about 12,000 deposited reagents. About 5,600 of them (46%) were called active. 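Active calls cover z-scores past 1 in both directions, so they include lowered as well as raised rotavirus replication.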

IL9R — z-score vs non-targeting control: 1.7; outcome: active
YLPM1 — z-score vs non-targeting control: 0.642; outcome: inactive
EP400 — z-score vs non-targeting control: -0.789; outcome: inactive
SERAC1 — z-score vs non-targeting control: -0.142; outcome: inactive
MPDU1 — z-score vs non-targeting control: -0.423; outcome: inactive
AGFG2 — z-score vs non-targeting control: 0.587; outcome: inactive
KLF17 — z-score vs non-targeting control: 0.718; outcome: inactive
PEX39 — z-score vs non-targeting control: 1.87; outcome: active
OR7C2 — z-score vs non-targeting control: -0.593; outcome: inactive
KLHDC2 — z-score vs non-targeting control: -0.639; outcome: inactive
IAPP — z-score vs non-targeting control: -0.51; outcome: inactive
GPR153 — z-score vs non-targeting control: -0.948; outcome: inactive
BPY2C — z-score vs non-targeting control: -1.18; outcome: active
CYP26B1 — z-score vs non-targeting control: 0.72; outcome: inactive
KIR2DL4 — z-score vs non-targeting control: 1.25; outcome: active
TOR1A — z-score vs non-targeting control: 0.583; outcome: inactive
RFC2 — z-score vs non-targeting control: -1.18; outcome: active

No new results follow: an excerpt of the list.
GPR153 — z-score vs non-targeting control: -0.948; outcome: inactive
BPY2C — z-score vs non-targeting control: -1.18; outcome: active

Next reagents:
NLGN1 — z-score vs non-targeting control: -1.4; outcome: active
P2RY11 — z-score vs non-targeting control: 0.947; outcome: inactive
GAPDHS — z-score vs non-targeting control: -0.861; outcome: inactive
EFCAB7 — z-score vs non-targeting control: -1.42; outcome: active
EML5 — z-score vs non-targeting control: 0.53; outcome: inactive
EPB41L3 — z-score vs non-targeting control: 0.203; outcome: inactive
GNAO1 — z-score vs non-targeting control: -0.365; outcome: inactive
PABIR1 — z-score vs non-targeting control: 0.342; outcome: inactive
OC90 — z-score vs non-targeting control: -0.914; outcome: inactive
LHX8 — z-score vs non-targeting control: -0.587; outcome: inactive
KATNAL1 — z-score vs non-targeting control: 1.68; outcome: active
NDUFB5 — z-score vs non-targeting control: -0.66; outcome: inactive
DPP3 — z-score vs non-targeting control: 0.844; outcome: inactive
FAM110C — z-score vs non-targeting control: -2.28; outcome: active
GRHL1 — z-score vs non-targeting control: -0.684; outcome: inactive
TENT5C — z-score vs non-targeting control: 1.52; outcome: active
GSTZ1 — z-score vs non-targeting control: -0.727; outcome: inactive
ARRDC5 — z-score vs non-targeting control: -1.66; outcome: active
RBM23 — z-score vs non-targeting control: -0.29; outcome: inactive
TMEM39A — z-score vs non-targeting control: -1.88; outcome: active
OR4N2 — z-score vs non-targeting control: -0.54; outcome: inactive
ZNF221 — z-score vs non-targeting control: -2.38; outcome: active
SCD5 — z-score vs non-targeting control: -1.96; outcome: active
OTUB1 — z-score vs non-targeting control: 0.875; outcome: inactive
SLC9C2 — z-score vs non-targeting control: 0.0108; outcome: inactive
METTL16 — z-score vs non-targeting control: -1.24; outcome: active
SPATA46 — z-score vs non-targeting control: -2.04; outcome: active
ATP8B3 — z-score vs non-targeting control: -2.24; outcome: active
ERICH5 — z-score vs non-targeting control: 1.07; outcome: active
BEST1 — z-score vs non-targeting control: 0.0358; outcome: inactive
